# Assay results reported in PubChem BioAssay AID504648 (National Center for Advancing Translational Sciences (NCATS), 2011).
# The entries are a selection whose mix differs from that of the whole data set. Records with an inconclusive call do not appear. The source made the active and inactive calls. Calls come from the whole dose curve; as a rule, active = well fitted inhibition curve with a large enough effect; inconclusive = small, poorly fitted or top-dose-only effect, or effect the other way, or another doubt; inactive = no such curve, though single readings can be large or run the other way.
# Test: Nrf2 qHTS screen for inhibitors: counterscreen for cytotoxicity
# Conditions: A549 ARE-Fluc cells, CellTiter-Fluor viability, 18-24 h
# Text: NIH Molecular Libraries Probe Production Network [MLPCN]
# NIH Chemical Genomics Center [NCGC]
# Assay Provider: Shyam Biswal, Johns Hopkins University
# Nrf2 is a transcription factor that maintains cellular redox homoestasis and protects cells from xenobiotics. Nrf2 binds to the antioxidant response element (ARE) to induce gene expression of a broad spectrum of genes that encode for antioxidants. […] Finding a small molecule that act as an inhibitor of Nrf2 function would represent a novel therapeutic target that could lead to improvement in survival of patients undergoing chemo- and/or radio- therapy.
# So here we implemented a counterscreen to weed out the cytotoxic compounds.
# 1. […]
# A concentration-response assay was performed with A549 ARE_Fluc cells which are suspended in 5% FBS OPTI-MEM. […] The plate is then incubated at 37deg C at 5% CO2 for 30 minutes before they are read on the ViewLux (Perkin Elmer) for a fluorescent read Ex=405(10)/Em=525(10) for a 3 second exposure, 2x binning, and high gain. […] Afterwards another ViewLux read is performed using the clear filter to get a luminescent read with the settings of 40 second exposure, 2x binning, and high gain. Cytotoxicity is assessed through the first fluorescent read and then biochemical activity against Nrf2 is measured in the luminescent read.
# Potency is the fitted concentration of half-maximal effect.
row,SMILES,Potency
1,CC(=O)OCC12CC(OC(=O)CC(C)C)C(C)=CC1OC1C(O)C(OC(C)=O)C2(C)C12CO2 (stereo unspecified),active: 16.4 nM
